Measured values from several laboratories, pooled; numbers as filed in NIAID ChemDB.

Shared fields: tests in culture; organism: Mycobacterium tuberculosis

MIC bound comes from a single tested concentration. MIC50, MIC90 and the like: level of inhibition, or share of isolates inhibited. ECn is the concentration giving n% inhibition of infection, replication or growth. Conditions beyond the fields shown may differ between rows. Blank or dashed fields: not listed here. Percent inhibition refers to the dose given; in toxicity tests it is the harm to the cells.

structure,read by,measure,strain or isolate,tested at,cell line,value
CCCCC(CC)CN1CN(CC(CC)CCCC)CC(C)(NCCNCc2ccccc2F)C1,,MIC,,,,12.5 µM
COc1ccc(C2CC(=O)c3cc(C(=O)O)ccc3O2)cc1,,inhibition,H37Rv,12.5 µg/mL,,0%
Cn1c2c(F)cccc2c(=O)c2c(O)cc3c(c21)C=CC(C)(C)O3,BACTEC,inhibition,H37Rv,12.5 µg/mL,,-2%
NS(=O)(=O)O.[NH4+],,MIC,H37Rv,,,>100 µg/mL
COc1ccc(CNCCNCCc2ccc(F)cc2)cc1OC,,MIC,,,,50 µM
CCOC(=O)Nc1cc(N)c2[nH]cnc2n1,,EC50,H37Rv,,,>12.5 µg/mL
OC1(c2ccccc2C(O)(C(F)(F)F)C(F)(F)F)OC(C(F)(F)F)(C(F)(F)F)c2ccccc21,BACTEC,MIC bound,H37Rv,,,>12.5 µg/mL
Cc1cc(=O)[nH]c2c(N)cccc12,,MIC,H37Rv,,,>100 µg/mL
CCCCCCCCCCCNCCNCc1cccc2ccccc12,,MIC,,,,25 µM
CC[C@H]1OC(=O)[C@H](C)[C@@H](O[C@H]2C[C@@](C)(OC)[C@@H](O)[C@H](C)O2)[C@H](C)[C@@H](O[C@@H]2O[C@H](C)C[C@H](N(C)C)[C@H]2O)[C@](C)(OC)C[C@@H](C)C(=O)[C@H](C)[C@@H](O)[C@]1(C)O,,MIC90,MDR,,,>8 µg/mL
CC[N+](CC)=c1ccc2nc3c(cc(NCc4ccccc4)c4ccccc43)oc-2c1,BACTEC,MIC bound,H37Rv,,,≤12.5 µg/mL
CO[C@H]1/C=C/O[C@@]2(C)Oc3c(C)c(O)c4c(O)c(c5c(c4c3C2=O)NC2(CCN(CC(C)C)CC2)N=5)=NC(=O)/C(C)=C\C=C\[C@H](C)[C@H](O)[C@@H](C)[C@@H](O)[C@@H](C)[C@H](OC(C)=O)[C@@H]1C,,MIC,Strain 81 (F514 deletion),,,0.25 µg/mL
NC(=S)N/N=C1/C(=O)N(c2ccccc2)C(=O)C1C(=O)Nc1ccccc1,BACTEC,inhibition,H37Rv,12.8 µg/mL,,21%
Nc1ccc(S(=O)(=O)NO)cc1,,MIC,H37Rv,,,100 µg/mL
Fc1ccccc1CCNCCNCC(c1ccccc1)c1ccccc1,,MIC,,,,50 µM
CCN(CC)CCCC#N,,MIC,H37Rv,,,>100 µg/mL
CC(C)c1ccc2c(c1)CC[C@H]1[C@](C)(CNCCNC3CCCC3)CCC[C@]21C,,MIC,,,,25 µM
CCC1COCC1Cc1cncn1C.ON(O)O,BACTEC,inhibition,H37Rv,12.5 µg/mL,,-1%
CC1COc2c(N3CCN(C)CC3)c(F)cc3c(=O)c(C(=O)O)cn1c23,,MBC,ATCC35838,,,1 µg/mL
N#C/C(c1nc2ccccc2[nH]1)=c1\s/c(=C(\N)O)c(=N)n1-c1ccccc1,resazurin,MIC bound,H37Rv,,,>6.25 µg/mL
CCOc1ccc(-c2ccccc2)cc1NC(=O)c1cc2ccccc2cc1O,,MIC,H37Rv,,,>100 µg/mL
O=C1CC(c2ccccc2Br)Oc2ccccc21,,EC50,,,,>12.5 µg/mL
C[S+](C)C1=C(O)OC(C)(C)OC1=O,BACTEC,MIC bound,H37Rv,,,>12.5 µg/mL
NCC[C@H](O)C(=O)N[C@@H]1C[C@H](N)[C@@H](O[C@H]2O[C@H](CN)[C@@H](O)[C@H](O)[C@H]2O)[C@H](O)[C@H]1O[C@H]1O[C@H](CO)[C@@H](O)[C@H](N)[C@H]1O,,MIC,TN2793,,,32 µg/mL
Clc1ccc(CCNCCNCCc2ccccc2)c(Cl)c1,,MIC,,,,50 µM
COc1ccc2c(Cl)c3cc(Cl)ccc3nc2c1,,MIC,H37Rv,,,>100 µg/mL
Cn1c([N+](=O)[O-])cnc1N1CCN(c2nncs2)C1=O,BACTEC,inhibition,H37Rv,12.5 µg/mL,,-13%
Oc1ccc(-c2nc3ccccc3nc2-c2ccc(O)cc2)cc1,,MIC,H37Rv,,,>100 µg/mL
CC(C)=CCC/C(C)=C/CNCCNC1CCCCCCC1,,MIC,,,,25 µM
CCCCCCCCCCCNCCNC1CCCCC1,,MIC,,,,25 µM
O=C(O)c1cc(O)c(O)c(O)c1,,MIC,H37Rv,,,100 µg/mL
C[C@@H]1CN(c2c(F)c(N)c3c(=O)c(C(=O)O)cn(C4CC4)c3c2F)C[C@H](C)N1,,MIC50,DRUG-SUS,,,0.06 µg/mL
CN(C)c1ccc(-n2c(=O)oc3ccc(Cl)cc3c2=O)cc1,,MIC,CNCTC MY331/88,,,31 µM
CCOC(=O)Nc1cc(NCC(=O)c2ccc(C(F)(F)F)cc2)c([N+](=O)[O-])c(N)n1,,EC50,H37Rv,,,>12.5 µg/mL
O=C(/C=C/c1cc2ccccc2[nH]1)c1ccncc1,,EC50,,,,>12.5 µg/mL
COc1ccc(C(Cn2ccnc2)Sc2ccc(Cl)c(Cl)c2)cc1,resazurin,MIC bound,H37Rv,,,<6.25 µg/mL
NC1CCN(c2nc3c(cc2F)c(=O)c(C(=O)O)cn3-c2ccc(F)cc2F)C1,,MBC,H37Rv,,,>8 µg/mL
NCC[C@H](O)C(=O)N[C@@H]1C[C@H](N)[C@@H](O[C@H]2O[C@H](CN)[C@@H](O)[C@H](O)[C@H]2O)[C@H](O)[C@H]1O[C@H]1O[C@H](CO)[C@@H](O)[C@H](N)[C@H]1O,broth dilution / resazurin,MIC,MDR13,,,16 µg/mL
N=Nc1c(OC(=O)Nc2ccccc2)[nH]c2ccccc12,BACTEC,MIC bound,H37Rv,,,>12.5 µg/mL
Clc1ccc(CCNCCNCCc2ccccc2Cl)c(Cl)c1,,MIC,,,,50 µM
CC(=O)NC(N)=S,,MIC,H37Rv,,,50 µg/mL
CCOC(=O)Nc1cc(N(C)CC(=O)c2ccc(O)cc2)c([N+](=O)[O-])c(N)n1,,EC50,H37Rv,,,>12.5 µg/mL
OCc1ccccc1Sc1ccccc1CNCCNCC(c1ccccc1)c1ccccc1,,MIC,,,,6.25 µM
COc1ccc2c3c(c(=O)n(C)c2c1OC)C=CC(C)(C)O3,BACTEC,MIC,H37Rv,,,≥12.5 µg/mL
CCCCC(CC)CN1CN(CC(CC)CCCC)CC(C)(NCCNCc2ccco2)C1,,MIC,,,,12.5 µM
O=[N+]([O-])c1cccc(/C=C/c2ccc3ccccc3n2)c1,,MIC,H37Rv,,,100 µg/mL
CO[C@H]1/C=C/O[C@@]2(C)Oc3c(C)c(O)c4c(O)c(c(/C=N/N5CCN(C6CCCC6)CC5)c(O)c4c3C2=O)NC(=O)/C(C)=C\C=C\[C@H](C)[C@H](O)[C@@H](C)[C@@H](O)[C@@H](C)[C@H](O)[C@@H]1C,,MIC,Isolate 900145 drug-susceptible,,,0.25 µg/mL
CCOC(=O)c1cn2c3c(cccc3c1=O)CC2,BACTEC,MIC bound,H37Rv,,,>12.5 µg/mL
NCc1c[nH]c(=S)[nH]1,,MIC,H37Rv,,,100 µg/mL
CC(NCCNCCc1ccccc1)C12CC3CC(CC(C3)C1)C2,,MIC,,,,50 µM
CCOC(=O)c1ccc(-n2c(=O)oc3ccc(OC)cc3c2=O)cc1,,MIC,CNCTC MY331/88,,,16 µM
COc1ccccc1C1OC2=Nc3cc(C)c(C)cc3NC2C1=O,BACTEC,MIC bound,H37Rv,,,>12.5 µg/mL
Oc1ccc(O)c(Cl)c1,,MIC,H37Rv,,,100 µg/mL
CCOC(=O)Nc1cc(NC/C(=C\O)c2ccc(C)cc2)c([N+](=O)[O-])c(N)n1,,EC50,H37Rv,,,>12.5 µg/mL
O=[N+]([O-])c1cccc(-c2ccncc2)c1,,MIC,H37Rv,,,>100 µg/mL
CCOc1ccccc1CNCCN[C@@H]1C[C@@H]2C[C@H]([C@H]1C)C2(C)C,,MIC,,,,50 µM
Cc1cc2c(cc1C)[n+]([O-])c1c(=O)[nH]c(=O)nc-1n2CC(O)C(O)C(O)CO,BACTEC,inhibition,H37Rv,12.5 µg/mL,,29%
NC(=S)c1ccccc1,,MIC,H37Rv,,,>100 µg/mL
O=C1CC(c2ccccc2)Oc2ccc(F)cc21,,inhibition,,12.5 µg/mL,,7%
CO[C@H]1/C=C/O[C@@]2(C)Oc3c(C)c(O)c4c(=O)c(c5oc6cc(N7CCN(CC(C)C)CC7)cc(=O)c6nc5c4c3=C2O)NC(=O)/C(C)=C\C=C\[C@H](C)[C@H](O)[C@@H](C)[C@@H](O)[C@@H](C)[C@H](OC(C)=O)[C@@H]1C,,MIC,2230 (rifampin-resistant),,,0.1 µg/mL
O=c1oc2ccc(F)cc2c(=O)n1-c1cccc([N+](=O)[O-])c1,,MIC,CNCTC MY331/88,,,31 µM
CO[C@H]1/C=C/O[C@@]2(C)Oc3c(C)c(O)c4c(=O)c(c5oc6cc(N7CCN(C(C)C)CC7)cc(=O)c6nc5c4c3=C2O)NC(=O)/C(C)=C\C=C\[C@H](C)[C@H](O)[C@@H](C)[C@@H](O)[C@@H](C)[C@H](OC(C)=O)[C@@H]1C,,MBC,3147 (rifampin-sensitive),,,0.012 µg/mL
O=C(C[C@@H](O)CCc1ccc(O)c(O)c1)O[C@H]1Cc2c(O)cc(O)cc2O[C@@H]1c1ccc(O)c(O)c1,BACTEC,inhibition,H37Rv,12.5 µg/mL,,7%
Fc1ccccc1CNCCNCc1ccco1,,MIC,,,,50 µM
COC(=O)c1ccc(I)c(C)c1,,MIC,H37Rv,,,>100 µg/mL
CCOC(=O)Nc1cc(N)c(N)c(N)c1,,EC50,H37Rv,,,>12.5 µg/mL
CCCCN(CCCC)CCNc1ccc(C)c2sc3c(Cl)cccc3c(=O)c12,BACTEC,MIC bound,H37Rv,,,≤12.5 µg/mL
CCCCCCCCN1C(=O)CCC1=O,,MIC,H37Rv,,,>100 µg/mL
C=CCn1c2ccccc2c2c(C)c3cnccc3c(C)c21,,MIC,H37Rv,,VERO,3.13 µg/mL
O=C(Nc1ccc(Nc2ccccc2)c(S(=O)(=O)[O-])c1)c1ccccc1.[Na+],,MIC,H37Rv,,,>100 µg/mL
CC(=O)N=C1N(/C=C2/C(=O)Oc3ccccc3C2=O)C(=O)/C(=C\c2cccc([N+](=O)[O-])c2)N1C,BACTEC,MIC bound,H37Rv,,,>12.5 µg/mL
CC1(C)[C@H]2CC[C@@H](CNCCN[C@H]3C[C@H]4CC[C@]3(C)C4(C)C)[C@@H]1C2,,MIC,,,,3.13 µM
Cc1ccccc1O,,MIC,H37Rv,,,>100 µg/mL
O=c1oc2ccc([N+](=O)[O-])cc2c(=O)n1-c1ccccc1,,MIC,CNCTC MY331/88,,,62 µM
Clc1ccc(CCNCCNCc2cccc3ccccc23)c(Cl)c1,,MIC,,,,25 µM
c1ccc(C(CNCCNCC23CC4CC(CC(C4)C2)C3)c2ccccc2)cc1,,MIC,,,,9.4 µM
CO[C@H]1/C=C/O[C@@]2(C)Oc3c(C)c(O)c4c(=O)c(c5oc6cc(N7CCN(CC(C)C)CC7)cc(=O)c6nc5c4c3=C2O)NC(=O)/C(C)=C\C=C\[C@H](C)[C@H](O)[C@@H](C)[C@@H](O)[C@@H](C)[C@H](OC(C)=O)[C@@H]1C,,MIC,TN804,,,8 µg/mL
O=C1CSc2nc3ccc(Br)cc3c(=O)n21,,inhibition,H37Rv,6.25 µg/mL,,-14%
Nc1cccc(C(=O)O)c1,,MIC,H37Rv,,,100 µg/mL
O=C(N/N=C/c1ccccc1S(=O)(=O)[O-])C(=O)N/N=C/c1ccccc1S(=O)(=O)[O-].[Na+].[Na+],BACTEC,MIC bound,H37Rv,,,>12.5 µg/mL
Nc1ccc([N+](=O)[O-])cc1C(=O)O,,MIC,H37Rv,,,>100 µg/mL
C[C@H]1COc2c(N3CCN(C)CC3)c(F)cc3c(=O)c(C(=O)O)cn1c23,,MBC,ATCC 35823,,,0.5 µg/mL

Again, the opening 8 rows:

| structure | read by | measure | strain or isolate | tested at | cell line | value |
|---|---|---|---|---|---|---|
| CCCCC(CC)CN1CN(CC(CC)CCCC)CC(C)(NCCNCc2ccccc2F)C1 |  | MIC |  |  |  | 12.5 µM |
| COc1ccc(C2CC(=O)c3cc(C(=O)O)ccc3O2)cc1 |  | inhibition | H37Rv | 12.5 µg/mL |  | 0% |
| Cn1c2c(F)cccc2c(=O)c2c(O)cc3c(c21)C=CC(C)(C)O3 | BACTEC | inhibition | H37Rv | 12.5 µg/mL |  | -2% |
| NS(=O)(=O)O.[NH4+] |  | MIC | H37Rv |  |  | >100 µg/mL |
| COc1ccc(CNCCNCCc2ccc(F)cc2)cc1OC |  | MIC |  |  |  | 50 µM |
| CCOC(=O)Nc1cc(N)c2[nH]cnc2n1 |  | EC50 | H37Rv |  |  | >12.5 µg/mL |
| OC1(c2ccccc2C(O)(C(F)(F)F)C(F)(F)F)OC(C(F)(F)F)(C(F)(F)F)c2ccccc21 | BACTEC | MIC bound | H37Rv |  |  | >12.5 µg/mL |
| Cc1cc(=O)[nH]c2c(N)cccc12 |  | MIC | H37Rv |  |  | >100 µg/mL |